Measurements taken from publication PMC10374059.
For at least one entry, the source does not settle the construct or the ends of the probe. For part of these data: A negative result means that nothing was seen under these conditions. For part of these data: At least one verdict was read from the data and is not stated in words by the source.

Legend:
rKAP68-His (TbKAP68) [1] = test: competition with a labelled probe; settings: 200-fold excess of unlabeled same DNA competes; LightShift chemiluminescent EMSA kit binding buffer, 0.1% digitonin, 0.01% BSA, no dI-dC, 20 fmol biotinylated DNA, 4 pmol unlabeled competitor, 6% acrylamide gel; recombinant protein; protein details: C-terminal 6xHis
[2] = tested on: MBP-rmtHMG44 (TbmtHMG44) (Trypanosoma brucei 427); test: EMSA; settings: LightShift chemiluminescent EMSA kit binding buffer, 0.1% digitonin, 0.01% BSA, no dI-dC, 20 fmol biotinylated DNA, 4 pmol unlabeled competitor, 6% acrylamide gel; recombinant protein; protein details: N-terminal MBP
rKAP68-His (TbKAP68) [3] = test: EMSA; settings: 200 and 100 ng protein shift almost all of 20 fmol DNA, shift drops gradually at 50, 25, 6.25 ng, no dI-dC, LightShift chemiluminescent EMSA kit binding buffer, 0.1% digitonin, 0.01% BSA, 20 fmol biotinylated DNA, 4 pmol unlabeled competitor, 6% acrylamide gel, recombinant protein, protein details: C-terminal 6xHis

GAAAAAACGGAAAATCTTATGGGCGTGCAAAAATACACATACACAAATCCCGTGCTTATTTTAGGCCATTTTT (double strand) [CM-DNA, conserved minicircle 73 bp]
binding result (rKAP68-His (TbKAP68) [1]): binds | binding result [2]: no binding | binding result (rKAP68-His (TbKAP68) [3]): binds
